Experimental data published in patent US11925194B2, “Antimicrobially active mixtures” (SYMRISE AG, priority 2017, dated 2024).

Assay: Sensory effect of flavouring agents in still water with GRA and cherry flavouring
Settings: citric acid, 200 mg/kg GRA (Ex. 1), 0.1 g/100 g cherry flavouring
[1] = dose 10 mg/kg added to still water with sweeteners

SMILES: COc1cc(C(=O)O)ccc1O [Vanillic acid]
- Sensory effect compared to basis (dose 100 mg/kg added to still water with sweeteners): More balanced, less sour

SMILES: COc1cc(C[C@H]2COC(=O)[C@@H]2Cc2ccc(O)c(OC)c2)ccc1O [Matairesinol]
- Sensory effect compared to basis [1]: More fresh, more citric, less lingering

SMILES: CCCCC/C=C/C=C/C(=O)NCC(C)C [Pellitorin]
- Sensory effect compared to basis [1]: More intensive cherry

SMILES: COc1ccc([C@@H]2CC(=O)c3c(O)cc(O)cc3O2)cc1O [Hesperitin]
- Sensory effect compared to basis (dose 25 mg/kg added to still water with sweeteners): Stronger like juicy cherry
